The values that follow come from US11674950B2, “Methods determining and treating cellular resistance to ADP-rtbosylating toxin” (priority 2017, dated 2023).

This series has as its system DPH1. As to the kind of experiment: RNA-sequencing of CD123+ sorted blasts before and after SL-401. The series is classed as in vivo, human. Particulars: 2 AML patients, pre & post 2 cycles.

No dose or concentration is given here for some results.

B1: tagraxofusp (protein)
chain: MGADDVVDSSKSFVMENFSSYHGTKPGYVDSIQKGIQKPKSGTQGNYDDDWKGFYSTDNKYDAAGYSVDNENPLSGKAGGVVKVTYPGLTKVLALKVDNAETIKKELGLSLTEPLMEQVGTEEFIKRFGDGASRVVLSLPFAEGSSSVEYINNWEQAKALSVELEINFETRGKRGQDAMYEYMAQACAGNRVRRSVGSSLSCINLDWDVIRDKTKTKIESLKEHGPIKNKVISESPNKTVSEEKAKQYLEEFHQTALEHPELSELKTVTGTNPVFAGANYAAWAVNVAQVIDSETADNLEKTTAALSILPGIGSVMGIADGAVHHNTEEIVAQSIALSSLMVAQAIPLVGELVDIGFAAYNFVESIINLFQVVHNSYNRPAYSPGHKTRPHMAPMTQTTSLKTSWVNCSNMIDEIITHLKQPPLPLLDFNNLNGEDQDILMENNLRRPNLEAFNRAVKSLQNASAIESILKNLLPCLPLATAAPTRHPIHIKDGDWNEFRRKLTFYLKTLENAQAQQTTLSLAW
For B1, the “change of DPH1 after exposure (mean)” value is recorded as −2.1 fold.
